PubChem BioAssay AID1259414, Drosophila RNAi Screening Center, 2018

- Assay: 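Fly genes that alter Wolbachia amount inside host cells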 (primary screen)
- Cells: Drosophila JW18 cells infected with Wolbachia
- Reagents: long dsRNA against Drosophila genes, 0.25 µg dsRNA per well of a 384-well plate
- Time to read-out: 5 days
- Conditions: cells persistently infected with Wolbachia before knock-down; no added drug
- Detection: 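Imaged fluorescence in situ signal for Wolbachia 23S rRNA per DAPI-counted host cell, given as a robust z-score within each plate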
- Scale: Wolbachia per cell robust z: higher = more Wolbachia per host cell than the plate typical
- Call rule: 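Hit when robust z is 1.5 or more, or -1.5 or less, in at least two of three replicates; excludes dsRNAs with several or no targets, genes not expressed in JW18 and well A1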
The deposit covers about 24,000 reagents; this is an unselected part of those with a known target gene and a result. Of all reagents, about 1,210 (5%) were called active. 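Inactive calls also include excluded dsRNAs with several or no targets, genes unexpressed in JW18, and well A1, regardless of score.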

With knock-down of CG42271 [DRSC19809] the results were Wolbachia per cell robust z, rep 1 = 0.773; Wolbachia per cell robust z, rep 2 = -0.223; Wolbachia per cell robust z, rep 3 = 1.47; inactive. Against CG42271 [DRSC22894], the values are Wolbachia per cell robust z, rep 1 = -2.63; Wolbachia per cell robust z, rep 2 = -0.906; Wolbachia per cell robust z, rep 3 = -0.987; inactive. CG42271 [DRSC27249] scored Wolbachia per cell robust z, rep 1 = -1.04; Wolbachia per cell robust z, rep 2 = 0.403; Wolbachia per cell robust z, rep 3 = 0.69; inactive. CG42271 [DRSC27338] showed Wolbachia per cell robust z, rep 1 = -6.19; Wolbachia per cell robust z, rep 2 = -2.08; Wolbachia per cell robust z, rep 3 = -2.43; active. Depletion of Zip102B [DRSC17155] resulted in: Wolbachia per cell robust z, rep 1 = 0.197; Wolbachia per cell robust z, rep 2 = 0.476; Wolbachia per cell robust z, rep 3 = -3.47; inactive. Zip102B [DRSC26001] scored Wolbachia per cell robust z, rep 1 = -1.74; Wolbachia per cell robust z, rep 2 = -2.12; Wolbachia per cell robust z, rep 3 = -1.39; active.

Depletion of CG10077 [DRSC09691] resulted in: Wolbachia per cell robust z, rep 1 = 0.405; Wolbachia per cell robust z, rep 2 = -1.62; Wolbachia per cell robust z, rep 3 = 0.618; inactive. Against CG10077 [DRSC24756] the deposit lists Wolbachia per cell robust z, rep 1 = -1; Wolbachia per cell robust z, rep 2 = -0.0583; Wolbachia per cell robust z, rep 3 = -0.1; inactive. With knock-down of Diap2 [DRSC07444] the results were Wolbachia per cell robust z, rep 1 = -3.26; Wolbachia per cell robust z, rep 2 = 0.291; Wolbachia per cell robust z, rep 3 = 0.174; inactive. After knock-down of Diap2 [DRSC26613] the results were Wolbachia per cell robust z, rep 1 = -0.932; Wolbachia per cell robust z, rep 2 = -1.55; Wolbachia per cell robust z, rep 3 = 0.497; inactive. Knock-down of mge [DRSC08721] gave: Wolbachia per cell robust z, rep 1 = 0.337; Wolbachia per cell robust z, rep 2 = 1.11; Wolbachia per cell robust z, rep 3 = 1.1; inactive. For Ac76E [DRSC09642], the entry reads Wolbachia per cell robust z, rep 1 = -0.786; Wolbachia per cell robust z, rep 2 = -0.663; Wolbachia per cell robust z, rep 3 = -0.516; inactive.

Ac76E [DRSC09662] scored Wolbachia per cell robust z, rep 1 = -1.87; Wolbachia per cell robust z, rep 2 = 0.704; Wolbachia per cell robust z, rep 3 = 0.798; inactive. Depletion of Kcmf1 [DRSC14459] came out at: Wolbachia per cell robust z, rep 1 = 0.64; Wolbachia per cell robust z, rep 2 = 0.639; Wolbachia per cell robust z, rep 3 = 0.932; inactive. With knock-down of Kcmf1 [DRSC26004], the screen gave Wolbachia per cell robust z, rep 1 = -1.06; Wolbachia per cell robust z, rep 2 = -0.179; Wolbachia per cell robust z, rep 3 = -1.22; inactive. Knock-down of CG42495 [DRSC40603] resulted in: Wolbachia per cell robust z, rep 1 = 0.769; Wolbachia per cell robust z, rep 2 = 0.243; Wolbachia per cell robust z, rep 3 = 0.359; inactive. RpS26 [DRSC03420] showed Wolbachia per cell robust z, rep 1 = 8.13; Wolbachia per cell robust z, rep 2 = 3.69; Wolbachia per cell robust z, rep 3 = 8.63; active. Against CG8460 [DRSC03090], the entry reads Wolbachia per cell robust z, rep 1 = -0.416; Wolbachia per cell robust z, rep 2 = -3.36; Wolbachia per cell robust z, rep 3 = -0.121; inactive.

After knock-down of Drice [DRSC16715] the results were Wolbachia per cell robust z, rep 1 = 0.0659; Wolbachia per cell robust z, rep 2 = 0.791; Wolbachia per cell robust z, rep 3 = 0.598; inactive. After knock-down of Drice [DRSC27804] the results were Wolbachia per cell robust z, rep 1 = 0.126; Wolbachia per cell robust z, rep 2 = 0.512; Wolbachia per cell robust z, rep 3 = -1.01; inactive. ZnT35C [DRSC01959] showed Wolbachia per cell robust z, rep 1 = -0.629; Wolbachia per cell robust z, rep 2 = 0.554; Wolbachia per cell robust z, rep 3 = 0.677; inactive. Against msd5 [DRSC08560] the deposit lists Wolbachia per cell robust z, rep 1 = 0.992; Wolbachia per cell robust z, rep 2 = 0.738; Wolbachia per cell robust z, rep 3 = 0.619; inactive. Knock-down of msd5 [DRSC26406] gave: Wolbachia per cell robust z, rep 1 = 0.564; Wolbachia per cell robust z, rep 2 = 0.802; Wolbachia per cell robust z, rep 3 = -0.459; inactive. Against CG13850 [DRSC14700], the values are Wolbachia per cell robust z, rep 1 = 0.436; Wolbachia per cell robust z, rep 2 = 1.16; Wolbachia per cell robust z, rep 3 = 0.328; inactive.

CG13850 [DRSC41447] showed Wolbachia per cell robust z, rep 1 = 0.036; Wolbachia per cell robust z, rep 2 = -2.44; Wolbachia per cell robust z, rep 3 = -0.355; inactive. Against CG10950 [DRSC06020], the entry reads Wolbachia per cell robust z, rep 1 = -0.271; Wolbachia per cell robust z, rep 2 = -1.41; Wolbachia per cell robust z, rep 3 = -1.68; inactive. With knock-down of CG14219 [DRSC19576], the record shows Wolbachia per cell robust z, rep 1 = 1.2; Wolbachia per cell robust z, rep 2 = 0.583; Wolbachia per cell robust z, rep 3 = 0.743; inactive. Silencing of CG14219 [DRSC26450] gave: Wolbachia per cell robust z, rep 1 = 0.185; Wolbachia per cell robust z, rep 2 = -0.333; Wolbachia per cell robust z, rep 3 = 0.242; inactive. Knock-down of CG7333 [DRSC16229] resulted in: Wolbachia per cell robust z, rep 1 = -1.26; Wolbachia per cell robust z, rep 2 = -1.82; Wolbachia per cell robust z, rep 3 = 0.804; inactive. Knock-down of CG14810 [DRSC17693] came out at: Wolbachia per cell robust z, rep 1 = 1.82; Wolbachia per cell robust z, rep 2 = 1.24; Wolbachia per cell robust z, rep 3 = 0.839; inactive.

CG14810 [DRSC17961] scored Wolbachia per cell robust z, rep 1 = 0.516; Wolbachia per cell robust z, rep 2 = -1.84; Wolbachia per cell robust z, rep 3 = -0.0359; inactive. Against CG14810 [DRSC25199], the entry reads Wolbachia per cell robust z, rep 1 = -2.18; Wolbachia per cell robust z, rep 2 = -2.87; Wolbachia per cell robust z, rep 3 = -0.176; inactive.

Entries listed above called active:
CG42271 [DRSC27338] | Wolbachia per cell robust z, rep 1: -6.19; Wolbachia per cell robust z, rep 2: -2.08; Wolbachia per cell robust z, rep 3: -2.43; call: active
Zip102B [DRSC26001] | Wolbachia per cell robust z, rep 1: -1.74; Wolbachia per cell robust z, rep 2: -2.12; Wolbachia per cell robust z, rep 3: -1.39; call: active
RpS26 [DRSC03420] | Wolbachia per cell robust z, rep 1: 8.13; Wolbachia per cell robust z, rep 2: 3.69; Wolbachia per cell robust z, rep 3: 8.63; call: active
